Experimental data: PubChem BioAssay AID624099 (ICCB-Longwood, 2012)
Test: 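Knock-downs relieving repression by E2 of an HPV18 LCR luciferase reporter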 (primary screen). System: human C33A cervical carcinoma cells (HPV-negative) stably expressing BPV1 E2 and an HPV18 LCR luciferase reporter. Reagent: siRNA pool against human genes, 40 nM. Timing: 72 h. Read-out: 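HPV18 LCR reporter light per well, converted to plate-wise z-scores that exclude control wells, and averaged over triplicate plates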. Scale: mean z-score and z-score: higher = stronger reporter signal, weaker E2 silencing. Hit rule: 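Mean z ≥ 2 together with z ≥ 2 in two or more of the three replicates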.
This is an unselected part of about 21,000 reagents. 497 of all reagents (2.4%) were called active. 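Higher z means weaker E2 silencing; only reporter increases were scored, and knock-downs that hurt cell survival may mask genuine repressor factors.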 Unmarked entries are inactive. The numbers tell different reagents against one gene apart.

Target gene	reagent no.	mean z-score	z-score, replicate A	z-score, replicate B	z-score, replicate C
ZNF700 (GeneID 90592)	1	0.66	0.34	0.5	1.16
TYMP (GeneID 1890)	1	1.24	1.01	1.2	1.52
FCRLB (GeneID 127943)	1	-0.07	0.17	-0.16	-0.23
CARM1 (GeneID 10498)	1	-0.42	-0.36	-0.47	-0.43
LOC388643 (retired record) (GeneID 388643)	1	1.92	2.08	2.04	1.63
SMAD2 (GeneID 4087)	1	0.44	0.63	0.76	-0.06
PHF13 (GeneID 148479)	1	-0.14	0.3	0.07	-0.79
TIPRL (GeneID 261726)	1	0.37	0.72	0.07	0.31
ZSWIM1 (GeneID 90204)	1	0.87	1.3	1.17	0.15
ZNF438 (GeneID 220929)	1	-0.24	-0.11	-0.55	-0.07
KCNV2 (GeneID 169522)	1	-0.34	-0.57	-0.29	-0.15
TMEM50B (GeneID 757)	1	2.01	2.25	1.83	1.96
HYOU1 (GeneID 10525)	1	-0.83	-0.46	-1.25	-0.78
OR13G1 (GeneID 441933)	1	4.1 (active)	3.41	4.48	4.41
LZTR1 (GeneID 8216)	1	-1.33	-1.34	-1.25	-1.41
H1-10-AS1 (GeneID 339942)	1	-0.9	-0.16	-1.57	-0.98
RFT1 (GeneID 91869)	1	-0.5	-0.16	-0.56	-0.78
RFT1 (GeneID 91869)	2	0.16	0.4	-0.08	
TMEM9B (GeneID 56674)	1	0.36	0.12	0.62	0.34
PPEF2 (GeneID 5470)	1	-0.05	-0.31	0	0.18
TNFRSF13C (GeneID 115650)	1	0.31	0.25	0.39	0.28
CCNL1 (GeneID 57018)	1	0.12	0.07	0.2	0.08
HSFY2 (GeneID 159119)	1	-0.18	-0.23	-0.31	-0.01

Entries above whose target name begins with T or t (5):
Target gene	reagent no.	mean z-score	z-score, replicate A	z-score, replicate B	z-score, replicate C
TYMP (GeneID 1890)	1	1.24	1.01	1.2	1.52
TIPRL (GeneID 261726)	1	0.37	0.72	0.07	0.31
TMEM50B (GeneID 757)	1	2.01	2.25	1.83	1.96
TMEM9B (GeneID 56674)	1	0.36	0.12	0.62	0.34
TNFRSF13C (GeneID 115650)	1	0.31	0.25	0.39	0.28
